Our source for the Kd and koff values is article PMC5934441 (2018).

In general, Kd refers to the equilibrium constant for the complex coming apart. Broadly, the koff is a measure of how fast the partners let go of each other.

T1: recombinant ECTV CrmD (cytokine response modifier D), C-terminally tagged with V5 and 6xHis (ectromelia virus (ECTV))
T1 chain: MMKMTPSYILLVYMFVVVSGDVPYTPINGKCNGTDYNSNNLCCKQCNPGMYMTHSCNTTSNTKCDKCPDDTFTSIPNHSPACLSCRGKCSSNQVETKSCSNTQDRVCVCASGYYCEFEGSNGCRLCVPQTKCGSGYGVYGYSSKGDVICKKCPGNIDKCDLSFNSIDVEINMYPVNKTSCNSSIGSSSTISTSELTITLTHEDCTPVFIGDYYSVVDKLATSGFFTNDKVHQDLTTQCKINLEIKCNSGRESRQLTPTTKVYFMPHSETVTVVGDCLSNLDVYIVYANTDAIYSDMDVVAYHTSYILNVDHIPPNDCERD

B1: mouse Cxcl11 (ligand)
chain: FLMFKQGRCLCIGPGMKAVKMAEIEKASVIYPSNGCDKVEVIVTMKAHKRQRCLDPRSKQARLIMQAIEKKNFLRRQNM
B2: mouse Cxcl13 (ligand)
chain: ILEAHYTNLKCRCSGVISTVVGLNIIDRIQVTPPGNGCPKTEVVIWTKMKKVICVNPRAKWLQRLLRHVQSKSLSSTPQAPVSKRRAA
B3: mouse Ccl24 (ligand)
chain: VTIPSSCCTSFISKKIPENRVVSYQLANGSICPKAGVIFITKKGHKICTDPKLLWVQRHIQKLDAKKNQPSKGAKAVRTKFAVQRRRGNSTEV
B4: mouse Ccl25 (ligand)
chain: QGAFEDCCLGYQHRIKWNVLRHARNYHQQEVSGSCNLRAVRFYFRQKVVCGNPEDMNVKRAMRILTARKRLVHWKSASDSQTERKKSNHMKSKVENPNSTSVRSATLGHPRMVMMPRKTNN
B5: mouse Cxcl14 (ligand)
chain: SKCKCSRKGPKIRYSDVKKLEMKPKYPHCEEKMVIVTTKSMSRYRGQEHCLHPKLQSTKRFIKWYNAWNEKRRVYEE

The first assay addresses T1, recombinant ECTV CrmD (cytokine …). Briefly: SPR. For orientation: Surface plasmon resonance follows binding to a sensor surface in real time, without labels.
Consider B1, for which the Kd amounted to 4.87 nM.

For B2, the dissociation constant Kd came to 13.2 nM.

As for B3, the Kd came to 9 nM.

Turning to B4, the dissociation constant (Kd) came out at 4.86 nM.

As for B5, the equilibrium dissociation constant (Kd) stood at 40.2 nM.

Another assay has the same target. Briefly: SPR. The source holds these as a separate data set.
On to B1, for which the koff worked out at 0.00242 s⁻¹.

Turning to B2, the koff is 0.00212 s⁻¹.

In the case of B3, the dissociation rate constant (koff) was 0.00287 s⁻¹.

Regarding B4, the koff was found to be 0.00197 s⁻¹.

Take B5: the koff came to 0.041 s⁻¹.
